Pooled drug test results. Numbers come from NIAID ChemDB, via PubChem.

ECn is the concentration giving n% inhibition of infection, replication or growth. Lines come from different laboratories, so protocols vary. ICn: concentration for n% inhibition. An empty or dashed field is not shown. Fold resistance: result on the changed form divided by that on wild type. MIC50, MIC90 and the like: level of inhibition, or share of isolates inhibited. Inhibition is in % at the dose shown (toxicity tests: loss of growth or viability).

{"smiles": "Cc1c(CN(C)c2cccc3c2CCCC3)cnc2nc(N)nc(N)c12", "species": "Encephalitozoon intestinalis", "cell line": "RK-13", "measure": "inhibition", "test": "culture", "tested at": "0.1 µg/mL", "value": "69.5%"}
{"smiles": "CCO/N=C/c1ccc(OCCC2CCN(c3ccc(C)nn3)CC2)cc1", "species": "Rhinovirus", "cell line": "KB", "measure": "EC50", "strain": "A2#58 (ICAM-1 receptor group 50)", "method": "neutral red", "test": "culture", "value": "0.001 µM"}
{"smiles": "O=C(/C=C/c1ccccc1Cl)Nc1nnc(NCCc2c[nH]c3ccccc23)s1", "species": "Human cytomegalovirus", "measure": "IC50", "target": "Polymerase", "test": "target", "value": ">25 µM"}
{"smiles": "O=C(Nc1ncc([N+](=O)[O-])s1)c1ccccc1O", "species": "Vittaforma corneae", "cell line": "RK-13", "measure": "inhibition", "test": "culture", "tested at": "0.1 µg/mL", "value": "63.6%"}
{"smiles": "O=C(/C=C/c1ccccc1Cl)Nc1nnc(NCCCNC2CCCCC2)s1", "species": "Human cytomegalovirus", "measure": "IC50", "target": "Polymerase", "test": "target", "value": "<25 µM"}
{"smiles": "Cc1cn([C@H]2C=C[C@@H](COP(=O)(O)OP(=O)(O)OP(=O)(O)O)O2)c(=O)[nH]c1=O", "species": "HIV", "measure": "IC50", "target": "Reverse transcriptase", "method": "nucleotide incorporation / radiometric", "test": "target", "mutations": "RT-N137Q", "value": "0.24 µM"}
{"smiles": "CO[C@@H]1[C@H](OC(=O)NC(=O)CCl)CC[C@]2(CO2)[C@H]1[C@@]1(C)O[C@@H]1CC=C(C)C", "species": "Encephalitozoon intestinalis", "cell line": "RK-13", "measure": "inhibition", "test": "culture", "tested at": "0.1 µg/mL", "value": "78.7%"}
{"smiles": "C#CC[C@@H](C(=O)N[C@H](/C=C/C(=O)OCC)C[C@@H]1CCNC1=O)n1cccc(NC(=O)c2cc(C)on2)c1=O", "species": "Rhinovirus", "cell line": "H1-HELA", "measure": "inhibition", "strain": "Clinical isolate 119 (serotype 39)", "method": "cytopathic effect / XTT", "test": "culture", "tested at": "0.149 µM", "value": "90%"}
{"smiles": "Nc1nc2c(ncn2[C@H]2CC[C@@H](COP(=O)(O)OP(=O)(O)OP(=O)(O)O)O2)c(=O)[nH]1", "species": "HIV", "measure": "IC50", "target": "Reverse transcriptase", "method": "nucleotide incorporation / radiometric", "test": "target", "mutations": "RT-N137A", "value": "0.2 µM"}
{"smiles": "COc1ccc(OC)c(NCc2cnc3nc(N)nc(N)c3c2C)c1", "species": "Encephalitozoon intestinalis", "cell line": "RK-13", "measure": "inhibition", "test": "culture", "tested at": "0.1 µg/mL", "value": "28.3%"}
{"smiles": "CCCCCCCCCCCNc1nnc(NC(=O)c2ccc3c(c2)C(=O)OC3=O)s1", "species": "Human cytomegalovirus", "measure": "IC50", "target": "Polymerase", "test": "target", "value": "<25 µM"}
{"smiles": "CC(=O)Oc1ccccc1C(=O)Nc1ncc([N+](=O)[O-])s1", "species": "Vittaforma corneae", "cell line": "RK-13", "measure": "inhibition", "test": "culture", "tested at": "0.1 µg/mL", "value": "38.6%"}
{"smiles": "CN1CCN(CCCNc2nnc(NC(=O)/C=C/c3ccccc3Cl)s2)CC1", "species": "Human cytomegalovirus", "measure": "IC50", "target": "Polymerase", "test": "target", "value": ">25 µM"}
{"smiles": "Cc1cn([C@@H]2O[C@H](CO[Si](C)(C)C(C)(C)C)[C@@]3(OS(=O)(=O)C=C3N)[C@H]2O[Si](C)(C)C(C)(C)C)c(=O)[nH]c1=O", "species": "HIV", "measure": "fold resistance", "target": "Reverse transcriptase", "method": "nucleotide incorporation / radiometric", "test": "target", "mutations": "RT-N137S", "value": "0.63"}
{"smiles": "O=C(/C=C/c1ccccc1Cl)Nc1nnc(NCc2ccco2)s1", "species": "Human cytomegalovirus", "measure": "IC50", "target": "Polymerase", "test": "target", "value": ">25 µM"}
{"smiles": "CO[P@](=O)(c1cc(C)cc(/C=C/C#N)c1)c1c(C(N)=O)[nH]c2ccc(Cl)cc12", "species": "Human", "measure": "IC50", "target": "DNA polymerase beta", "test": "host protein", "value": ">479 µM"}
{"smiles": "COc1cc(C[C@H](C)[C@H](C)Cc2ccc(O)c(O)c2)ccc1O", "species": "Candida glabrata", "measure": "MIC80", "strain": "CCC 115-2000", "method": "broth dilution", "test": "culture", "value": "62.5 µg/mL"}
{"smiles": "O=C(Nc1nnc(NCCCNC2CCCCC2)s1)c1ccc2c(c1)C(=O)OC2=O", "species": "Human cytomegalovirus", "measure": "IC50", "target": "Polymerase", "test": "target", "value": "<25 µM"}

Repeating the final 2 entries:

| smiles | species | cell line | measure | strain | target | method | test | tested at | mutations | value |
|---|---|---|---|---|---|---|---|---|---|---|
| COc1cc(C[C@H](C)[C@H](C)Cc2ccc(O)c(O)c2)ccc1O | Candida glabrata |  | MIC80 | CCC 115-2000 |  | broth dilution | culture |  |  | 62.5 µg/mL |
| O=C(Nc1nnc(NCCCNC2CCCCC2)s1)c1ccc2c(c1)C(=O)OC2=O | Human cytomegalovirus |  | IC50 |  | Polymerase |  | target |  |  | <25 µM |